# Assay results taken from patent US10759774B2, “Inhibitors of hepatitis B virus targeting capsid assembly” (THE CURATORS OF THE UNIVERSITY OF MISSOURI, priority 2017, dated 2020).
# System: HBV
# Assay: Cell-based anti-HBV activity of HF9C6 analogs (Table 2; HBV DNA in HepAD38 cells)
# Set-up: species or system hepatitis B virus (HBV)
# Conditions: CC50/EC50
# Procedure: HepAD38 cells (5×10^4) were plated in 96-well plates in tet media. The next day, cells were washed 2× with PBS, and the media was replaced with complete media (DMEM, 10% FBS) containing compounds. Fresh complete media with compounds was added again after 2 days. After 2 additional days, cells were washed with PBS, trypsinized, and pelleted by centrifugation. The cell pellet was resuspended in 200 μl PBS, and DNA was extracted and analyzed as above. For dose responses, values were plotted in GraphPad Prism 5 and analyzed with the log (inhibitor) vs. normalized response—variable slope equation.
# HepAD38 cells were seeded in 96-well plates (3×10^4 cells/well) in tet media. […] After 2 days, the media was removed, and fresh media containing compounds was added. After 2 additional days, cells were washed with PBS and lysed with 10 mM Tris (pH 7.5), 1mM EDTA, 100mM NaCl, 1% NP-40 at 37° C. for 30 min. 60 μl of lysate was added to 60 μl of 1 M NaOH, 1.5 M NaCl and incubated at RT for 5 min to denature DNA. 120 μl of 1 M Tris (pH 7.4), 2 M NaCl was added. […] Membranes were incubated with CDP-STAR® chemiluminescent substrate (Roche), imaged by chemiluminescence, and quantified by densitometry. Values were plotted in GraphPad Prism 5 and analyzed with the log (inhibitor) vs. normalized response—variable slope equation.
smiles,measurement,value
Cc1c(C(=O)Nc2ccccc2)sc(N)c1C(N)=O [HF9C6],SI,>29
